From patent US20250388535A1, “SULFONATED AND SULFATED ARYL-ALKYL COMPOUNDS USEFUL AS SURFACTANTS” (SPECIALTY OPERATIONS FRANCE, priority 2022, published 2025)

Tested on: municipal activated sludge
Test: Biodegradability assessment using the 301 F OECD protocol (standard protocol)
Details: for % biodeg (28 d) (Standard protocol): 28 days, 20±2° C., closed BOD flask, without emulsion; for Lag phase: period preceding the beginning of mineralization of the test substance, protocol not given

Question: `CCCCCCCCCCCCCCCC(OS(=O)(=O)[O-])c1ccccc1.[Na+]` (stereo not drawn) [PAAS-C16] was tested. Which “% biodeg (28 d) (Standard protocol)” value did it give?
Answer: Its value is 55%.

Question: And the Lag phase?
Answer: Its Lag phase is 3 days.

Question: How did the “% biodeg (28 d) (Standard protocol)” value turn out when `CCCCCCCCCCCCCCCCC(C(=O)c1ccccc1)S(=O)(=O)[O-].[Na+]` (stereo not drawn) [PAKS-C18, reference compound] was run?
Answer: The value was 52%.

Question: And the Lag phase?
Answer: The Lag phase was 8 days.

Question: How did the “% biodeg (28 d) (Standard protocol)” value turn out when `CCCCCCCCCCCCCCCCC(C(O)c1ccccc1)S(=O)(=O)[O-].[Na+]` (stereo not drawn) [PAS-C18] was run?
Answer: Its value is 57%.

Question: And the Lag phase?
Answer: The Lag phase was 3 days.
